Results of unrelated studies side by side (data: NIAID ChemDB).

Shared fields: growth or infection tests; agent: Mycobacterium tuberculosis

Conditions beyond the fields shown may differ between rows. Percent inhibition refers to the dose given; in toxicity tests it is the harm to the cells. MIC bound: limit read from a one-dose screen. Blank or dashed fields: not listed here. Two numbers with a dash give a range or band. ECn: concentration that inhibits the pathogen or its effect by n%.

| SMILES | strain | tested at | method | endpoint | changes | cell line | setting | value |
|---|---|---|---|---|---|---|---|---|
| C[C@H]1COc2c(N3CCN(C)CC3)c(F)cc3c(=O)c(C(=O)O)cn1c23 | 001-012 (drug-resistant) | - | - | MBC | - | - | - | 0.75 µg/mL |
| O=C(O)/C(O)=C(\O)C(=O)O | H37Rv | - | - | MIC | - | - | - | >100 µg/mL |
| Nc1[nH]c(=S)nc2nc3c4ccccc4c4ccccc4c3nc12 | H37Rv | 12.5 µg/mL | BACTEC | inhibition | - | - | - | 19% |
| CCCCCCCCSc1nc(Cl)nc2nc[nH]c12 | H37Rv | 6.25 µg/mL | - | inhibition | - | - | - | 48% |
| c1ccc(Cc2nc3ccccc3o2)cc1 | H37Rv | - | - | MIC | - | - | - | 50 µg/mL |
| COc1ccc(OC)c(CCNCCNC23CC4CC(CC(C4)C2)C3)c1 | - | - | - | MIC | - | - | - | 25 µM |
| O=C(/C=C/c1ccccc1)c1cc(-c2ccccc2)ccc1O | H37Rv | - | - | EC50 | - | - | - | <12.5 µg/mL |
| COc1ccccc1Sc1nc(Cl)nc2nc[nH]c12 | H37Ra | - | - | MIC | - | - | - | >12.8 µg/mL |
| CC1COc2c(N3CCN(C)CC3)c(F)cc3c(=O)c(C(=O)O)cn1c23 | DKU220 | - | broth dilution | MIC | - | - | - | 0.5 µg/mL |
| COc1ccc(CNCCNCc2ccccc2Sc2ccccc2CO)cc1OC | - | - | - | MIC | - | - | - | 6.25 µM |
| COc1ccccc1CSc1ncccn1 | H37Ra | - | - | MIC | - | - | - | >12.8 µg/mL |
| C1CC[N+]2(CC1)CCCCC2.NC(=S)[S-] | KM-R | - | - | MIC | - | - | - | 3.1 µg/mL |
| O=C(O)C(O)c1ccccc1 | H37Rv | - | - | MIC | - | - | - | 50 µg/mL |
| O=C(NCCO)c1ccncc1 | H37Rv | 6.25 µg/mL | resazurin | inhibition | - | - | - | 0% |
| Nc1ccc(C(=O)/C=C/c2ccccc2)cc1 | - | 12.5 µg/mL | - | inhibition | - | - | - | 5% |
| NC(=O)C1(C(N)=O)CC1 | H37Rv | - | - | MIC | - | - | - | >100 µg/mL |
| N[C@@H]1CN(c2c(F)cc3c(=O)c(C(=O)O)cn([C@@H]4C[C@@H]4F)c3c2Cl)CC12CC2 | Clinical strain | - | resazurin | MIC | Gyrase Asp94Tyr | - | - | 0.0625–0.125 µg/mL |
| CCCCn1c(-c2ccccc2)cs/c1=N\N=C1/C(=O)Nc2ccccc21 | H37Rv | 12 µg/mL | - | inhibition | - | - | - | 24% |
| CCOc1ccc2c(N/N=C/c3ccc(OC)c4ccccc34)ccnc2c1 | H37Rv | 12.5 µg/mL | - | inhibition | - | VERO | - | 100% |
| O=C([C@@H](O)CO)N1CC=C(c2c(F)cc(N3C[C@H](COc4ccon4)OC3=O)cc2F)CC1 | H37Rv (ATCC 35811) | - | broth dilution | MIC | - | - | - | 0.5 µg/mL |
| Cc1ccc(C(=O)c2ccc(C)cc2)cc1 | H37Rv | - | - | MIC | - | - | - | >100 µg/mL |
| O=c1c(Cl)cc2nc3ccccc3sc-2c1Cl | H37Rv | - | BACTEC | MIC bound | - | - | - | >12.5 µg/mL |
| COc1ccc2ccccc2c1/C=N/Nc1cc(C)nc2cc(Cl)ccc12 | H37Rv | 12.5 µg/mL | - | inhibition | - | VERO | - | 100% |
| CCCOC(=O)/C=C/C(=O)N1CC(C)N(C(=O)/C=C/C(=O)OCCC)CC1C | H37Rv | - | BACTEC | MIC bound | - | - | - | >12.5 µg/mL |
| CCCCCCCCN1C(=O)CC(SCC(N)C(=O)O)C1=O | H37Ra | - | - | MIC | - | - | - | ≤20 µg/mL |
| COc1ccccc1CCNCCNC(C)(C)CC(C)(C)C | - | - | - | MIC | - | - | - | 50 µM |
| O=C(/C=C/c1ccccc1)c1cc(Br)ccc1O | - | 12.5 µg/mL | - | inhibition | - | - | - | 68% |
| O=c1nc(SCc2ccc(F)cc2)c2[nH]cnc2[nH]1 | H37Ra | - | - | MIC | - | - | - | >12.8 µg/mL |
| c1ccc2c(c1)CC(NCCNC1C3CC4CC(C3)CC1C4)C2 | - | - | - | MIC | - | - | - | 25 µM |
| Cl.ClCCCC1CCCCN1 | H37Rv | - | - | MIC | - | - | - | >100 µg/mL |
| CC[C@@H](CO)NCCN[C@@H](CC)CO | Beijing (E-47/94) | - | resazurin | MIC | Drug-resistant | - | - | 1.2 µM |
| CCCCCNCCNCC12CC3CC(CC(C3)C1)C2 | - | - | - | MIC | - | - | - | 50 µM |
| CCCCc1ccc2nccc(NN)c2c1 | H37Rv | 12.5 µg/mL | - | inhibition | - | VERO | - | 99% |
| O=C1c2cc(Cl)ccc2NC(O)c2cccn21 | H37Rv | - | BACTEC | MIC bound | - | - | - | >12.5 µg/mL |
| Nc1cc(=O)[nH]c2ccccc12 | H37Rv | - | - | MIC | - | - | - | >100 µg/mL |
| C[C@H]1COc2c(N3CCN(C)CC3)c(F)cc3c(=O)c(C(=O)O)cn1c23 | Clinical isolate BRF 23 | - | resazurin | MIC | INH resistant | - | - | 0.12 µg/mL |
| O=C1CC(=O)OCCOCCOCCO1 | H37Rv | - | BACTEC | MIC | - | - | - | ≥12.5 µg/mL |
| NC(=O)c1ccccc1N | H37Rv | - | - | MIC | - | - | - | >100 µg/mL |
| C1CCCC(NCCNC2C3CC4CC(C3)CC2C4)CCC1 | - | - | - | MIC | - | - | - | 25 µM |
| CCCCCCCC/C=N/NC(=O)C(=O)N/N=C/CCCCCCCC | H37Rv | - | BACTEC | MIC bound | - | - | - | >12.5 µg/mL |
| Cc1cccc(-n2[nH]c(NC(=O)c3cccc(N)c3)cc2=O)c1 | H37Rv | - | - | MIC | - | - | - | 50 µg/mL |
| CCCCN1C(=O)C(C)S/C1=N\N=C1/C(=O)Nc2ccccc21 | H37Rv | - | - | MIC | - | - | - | >12.5 µg/mL |
| C[N+](C)(CCCOc1ccccc1)CCCOc1ccccc1.[Br-] | H37Rv | - | - | MIC | - | - | - | >100 µg/mL |
| CC(C)=CCC/C(C)=C/CNCCNC[C@]1(C)CCC[C@]2(C)c3ccc(C(C)C)cc3CC[C@@H]12 | - | - | - | MIC | - | - | - | 12.5 µM |
| COc1ccc(-c2noc(C3=CC4(CCN(CC5CCCO5)CC4)c4ccccc43)n2)cc1 | 19000 | - | resazurin | MIC | Rifampicin-resistant | - | - | 0.39 µM |
| CCOC(=O)C1NC(=O)C(C)NC1=O | H37Rv | 12.5 µg/mL | BACTEC | inhibition | - | - | - | 21% |
| Nc1ccc2c(S(=O)(=O)O)cc(S(=O)(=O)O)cc2c1 | H37Rv | - | - | MIC | - | - | - | >100 µg/mL |
| Cc1ccc(-c2noc(C3=CC4(CCN(CC5CCCO5)CC4)c4ccccc43)n2)cn1 | TB377 | - | turbidity | MIC | Spiroindene-resistant | - | - | 15.5 µM |
| CCOc1cc(C)cc(C)c1N(C)C(=O)CCC(=O)O | H37Rv | - | - | MIC | - | - | - | >100 µg/mL |
| CCCCCCCCCN1C(=O)CC(C)(SCCN)C1=O | Clinical isolate (isoniazid-resistant) | - | - | MIC | - | - | - | ≤20 µg/mL |
| CO[C@H]1/C=C/O[C@@]2(C)Oc3c(C)c(O)c4c(=O)c(c5oc6cc(N7CCN(CC(C)C)CC7)cc(=O)c6nc5c4c3=C2O)NC(=O)/C(C)=C\C=C\[C@H](C)[C@H](O)[C@@H](C)[C@@H](O)[C@@H](C)[C@H](OC(C)=O)[C@@H]1C | Kurono | 10 µg/mL | - | inhibition | - | - | inside macrophages | 96.9% |
| Nc1ccc(N=Nc2ccc(C(=O)O)cc2)cc1 | H37Rv | - | - | MIC | - | - | - | >100 µg/mL |
| OCCN1CCN(CCO)CC1 | H37Rv | 12.8 µg/mL | BACTEC | inhibition | - | - | - | 13% |
| CO[C@H]1/C=C/O[C@@]2(C)Oc3c(C)c(O)c4c(=O)c(c5oc6cc(N7CCN(CC(C)C)CC7)cc(=O)c6nc5c4c3=C2O)NC(=O)/C(C)=C\C=C\[C@H](C)[C@H](O)[C@@H](C)[C@@H](O)[C@@H](C)[C@H](OC(C)=O)[C@@H]1C | TN801 | - | - | MIC | - | - | - | <1 µg/mL |
| c1ccc(CSc2ccccn2)cc1 | H37Rv | 6.25 µg/mL | - | inhibition | - | - | - | 0% |
| CO[C@H]1/C=C/O[C@@]2(C)Oc3c(C)c(O)c4c(O)c(c(/C=N/N5CCN(C6CCCC6)CC5)c(O)c4c3C2=O)NC(=O)/C(C)=C\C=C\[C@H](C)[C@H](O)[C@@H](C)[C@@H](O)[C@@H](C)[C@H](OC(C)=O)[C@@H]1C | Isolate 900201 drug-susceptible | - | - | MIC | - | - | - | 0.25 µg/mL |
| CC(=O)CCCCn1c(=O)c2c(nc(Br)n2C)n(C)c1=O | H37Rv | - | BACTEC | MIC bound | - | - | - | >12.5 µg/mL |
| CCN(CC)c1ccc(/C=N/Nc2ccnc3cc(OC)ccc23)cc1 | H37Rv | - | - | MIC | - | VERO | - | 12.5 µg/mL |
| O=C1CC(c2ccccc2Br)Oc2ccccc21 | H37Rv | 12.5 µg/mL | - | inhibition | - | - | - | 23% |
| CN(C)C1C(=O)C(C(=O)NCNC2C(=O)N3C2SC(C)(C)C3C(=O)O)=C(O)C2(O)C(=O)C3=C(O)c4c(O)cccc4C(C)(O)C3CC12 | H37Rv | - | BACTEC | MIC bound | - | - | - | >12.5 µg/mL |
| CC1CCC(NCCNC[C@]2(C)CCC[C@]3(C)c4ccc(C(C)C)cc4CC[C@@H]23)CC1 | - | - | - | MIC | - | - | - | 25 µM |
| CN(C)CCCN1c2ccccc2Sc2ccc(Cl)cc21 | Isolate B drug-susceptible | - | - | MBC | - | - | - | 20 µg/mL |
| COc1ccc(-c2noc(C3=CC4(CCN(C(=O)[C@H]5CCCN5C)CC4)c4ccccc43)n2)cc1 | H37Rv | - | resazurin | MIC | - | - | - | 50 µM |
| CCOc1cc(O)c(C(=O)/C=C/c2ccccc2)c(OCC)c1 | - | 12.5 µg/mL | - | inhibition | - | - | - | 0% |
| NC(=S)NNC(=O)/C(=C/c1ccc(/C=C(\NC(=O)c2ccccc2)C(=O)NNC(N)=S)cc1)NC(=O)c1ccccc1 | H37Rv | 12.5 µg/mL | BACTEC | inhibition | - | - | - | 94% |
| O=[As]([O-])(O)c1ccc(O)c(N(CCO)CCO)c1.[Na+] | H37Rv | - | - | MIC | - | - | - | >100 µg/mL |
| COc1ccc(-c2noc(C3=CC4(CCN(CC(C)O)CC4)c4ccccc43)n2)cc1 | H37Rv | - | resazurin | MIC | - | - | - | 0.8 µM |
| CCCCOc1ccc2nc(C)cc(N/N=C/c3ccc(OC)c4ccccc34)c2c1 | H37Rv | - | - | MIC | - | VERO | - | 0.78 µg/mL |
| CC(=O)NC1CONC1=O | H37Rv | - | BACTEC | MIC bound | - | - | - | >12.5 µg/mL |
| c1cc2ccc3cccc4ccc(c1)c2c34 | H37Rv | - | - | MIC | - | - | - | >100 µg/mL |
| C[C@H](O)CNCCNCCC(c1ccccc1)c1ccccc1 | - | - | - | MIC | - | - | - | 25 µM |
| Cl.O=C(O)C(CN1CCCCC1)N1CCCCC1 | H37Rv | - | - | MIC | - | - | - | >100 µg/mL |
| CC1=NOC(=O)C1N=Nc1ccc(Br)cc1C | H37Rv | - | resazurin | MIC bound | - | - | - | >6.25 µg/mL |
| O=C(O)CN(CC(=O)O)c1ccccc1C(=O)O | H37Rv | - | - | MIC | - | - | - | 50 µg/mL |
| C=CCNC(=S)N=Nc1c(O)[nH]c2ccc(Br)cc12 | H37Rv | 12 µg/mL | - | inhibition | - | - | - | 53% |
| NC(=O)c1cnccn1 | T2603 niacin-negative | - | - | MIC | - | - | - | 16 µg/mL |
| CN[C@@H]1[C@H](O[C@H]2[C@H](O[C@H]3[C@H](O)[C@@H](O)[C@H](N=C(N)N)[C@@H](O)[C@@H]3N=C(N)N)O[C@@H](C)[C@]2(O)C=O)O[C@@H](CO)[C@H](O)[C@H]1O | 136570 | - | resazurin | MIC | Streptomycin-resistant | - | - | >55 µM |
| CCCCCCCCN1C(=O)C=C(C)C1=O | H37Rv | - | - | MIC | - | - | - | ≤20 µg/mL |
| COc1ccccc1C(=O)CC(=O)Nc1ccc(NC(C)=O)cc1 | H37Rv | - | - | MIC | - | - | - | 100 µg/mL |
| O=C1CC(c2ccccc2)Oc2ccc(I)cc21 | H37Rv | - | - | EC50 | - | - | - | >12.5 µg/mL |
| NNC(=O)c1ccncc1 | AZD5847-resistant 4.6 | - | - | MIC | T460C Cys154Arg | - | - | 0.06 µg/mL |
| O=C1CC(c2ccccc2)Oc2cc(I)ccc21 | H37Rv | - | - | EC50 | - | - | - | >12.5 µg/mL |
| c1ccc(-c2nc3cc4c(cc3n3cccc23)oc2ccccc24)cc1 | H37Rv | - | BACTEC | MIC bound | - | - | - | >12.5 µg/mL |
| Cc1ccc(Sc2ccncc2)cc1 | H37Rv | 6.25 µg/mL | - | inhibition | - | - | - | 0% |
| COc1ccc(C(=O)/C=C/c2ccco2)c(O)c1 | H37Rv | 12.5 µg/mL | - | inhibition | - | - | - | 3% |
| Cc1ccc(N2C(=O)C(C)S/C2=N/N=C2\C(=O)Nc3ccc(Br)cc32)cc1 | H37Rv | - | - | EC50 | - | - | - | >12 µg/mL |
| COc1ccc(-c2cc(=O)c3ccc4c(O)cccc4c3o2)cc1 | H37Rv | 12.8 µg/mL | BACTEC | inhibition | - | - | - | 0% |
| N#CCCO | H37Rv | - | - | MIC | - | - | - | >100 µg/mL |
| C/C(=C\CC1=C(O)c2ccccc2C(=O)C1=O)CO | H37Rv | - | BACTEC | MIC | - | - | - | 128 µg/mL |
| N#Cc1c(O)ccc(O)c1C#N | H37Rv | - | - | MIC | - | - | - | >100 µg/mL |
| O=C(CSc1nnc(-c2ccc(N=Cc3ccc(Cl)cc3)cc2)o1)Nc1ccccc1[N+](=O)[O-] | H37Rv | - | resazurin | MIC bound | - | - | - | >6.25 µg/mL |
| CCCCCCCCCN1C(=O)C=CC1=O | H37Rv | - | - | MIC | - | - | - | ≤20 µg/mL |